Source: patent US4346087A, “Antibacterial surface active agent containing azaalkenelactam” (priority 1979, dated 1982)

Legend:
[1] = Metal corrosion inhibition in brake fluid A, copper; details: 100°±2° C., 120±2 hours, blank +0.18
[2] = Metal corrosion inhibition in brake fluid A, tin-plate; details: 100°±2° C., 120±2 hours, blank -0.15
[3] = Metal corrosion inhibition in brake fluid A, aluminum; details: 100°±2° C., 120±2 hours, blank +0.07
[4] = Metal corrosion inhibition in brake fluid A, steel; details: 100°±2° C., 120±2 hours, blank -0.20
[5] = Metal corrosion inhibition in brake fluid A, brass; details: 100°±2° C., 120±2 hours, blank -0.20
[6] = Metal corrosion inhibition in brake fluid A, cast iron; details: 100°±2° C., 120±2 hours, blank -0.14
[7] = Table 4, azaalkenelactams […] by weight in brake fluid A
[8] = Table 5, carboxylate derivatives […] by weight in brake fluid A

Compound	Weight change, copper [1, 7]	Weight change, tin-plate [2, 7] [mg/cm^2]	Weight change, aluminum [3, 7]	Weight change, steel [4, 7] [mg/cm^2]	Weight change, brass [5, 7] [mg/cm^2]	Weight change, cast iron [6, 7] [mg/cm^2]	Weight change, copper [1, 8] [mg/cm^2]	Weight change, tin-plate [2, 8] [mg/cm^2]	Weight change, aluminum [3, 8]	Weight change, steel [4, 8] [mg/cm^2]	Weight change, brass [5, 8] [mg/cm^2]	Weight change, cast iron [6, 8] [mg/cm^2]
CCCCCCCCCCCC(=O)OCCN1CCN=CC(C)C1=O (stereo not drawn) [Example 47, 4-lauroyloxyethyl-6-methyl-3,6-dihydro-2H-1,4-diazepin-5-one]	+0.02 mg/cm^2	-0.01	+0.01 mg/cm^2	0	-0.02	-0.02	–	–	–	–	–	–
CCCCCCCCCCCCCCC(O)CNCCN1CCCN=CC(C)C1=O (stereo not drawn) [Example 49, 1-(2-hydroxyhexadecyl)aminoethyl-3-methyl-3,6,7,8-tetrahydro-1,5-diazocin-2-one]	+0.01 mg/cm^2	0	0 mg/cm^2	-0.01	-0.01	-0.01	–	–	–	–	–	–
CCCCCCCCCCCCOCCNCCN1CCN=C(C)CC1=O [Example 6, 4-dodecoxyethylaminoethyl-7-methyl-3,6-dihydro-2H-1,4-diazepin-5-one]	+0.03 mg/cm^2	0	+0.02 mg/cm^2	-0.01	0	-0.01	–	–	–	–	–	–
CCCCCCCCCCCCCCCCCCCCC(O)CNCCNCCN1CCCN=C(C)CC1=O (stereo not drawn) [Example 30, 1-(2-hydroxy)docosylaminoethylaminoethyl-4-methyl-3,6,7,8-tetrahydro-1,5-diazocin-2-one]	+0.02 mg/cm^2	0	+0.01 mg/cm^2	-0.01	-0.02	-0.02	–	–	–	–	–	–
1-octadecylaminopropyl-4-methyl-1-aza-5-azoniacyclooct-4-en-2-one-5-propionate	–	–	–	–	–	–	0	-0.02	+0.02 mg/cm^2	-0.02	-0.01	-0.02
CCCCCCCC/C=C\CCCCCCCC(=O)NCCN1CCN=C(C)CC1=O [Example 10, 4-oleamidoethyl-7-methyl-3,6-dihydro-2H-1,4-diazepin-5-one]	+0.01 mg/cm^2	-0.02	0 mg/cm^2	-0.01	-0.02	0	–	–	–	–	–	–
CCCCCCCCCCCCNCCNCCN1CC[N+](CC(=O)[O-])=C(C)CC1=O [4-dodecylaminoethylaminoethyl-1-azonia-4-azacyclohept-7-en-5-one-1-acetate]	–	–	–	–	–	–	0	-0.02	+0.02 mg/cm^2	-0.03	-0.01	-0.03
CCCCCCCCCCCCCCC(O)CNCCN1CCN=CC(C)(C)C1=O (stereo not drawn) [Example 59, 4-(2-hydroxyhexadecyl)aminoethyl-6,6-dimethyl-3-hydro-2H-1,4-diazepin-5-one]	+0.01 mg/cm^2	-0.01	+0.01 mg/cm^2	0	-0.01	0	–	–	–	–	–	–
CCCCCCCCCCCCN1CCN=C(C)CC1=O [Example 1, 4-dodecyl-7-methyl-3,6-dihydro-2H-1,4-diazepin-5-one]	+0.02 mg/cm^2	0	+0.02 mg/cm^2	-0.01	0	-0.02	–	–	–	–	–	–
